Only a part is listed here, and it is no random draw. Results filed as inconclusive are left out. Activity calls are given as the source filed them.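 Rule for the calls: active = compound lowering the normal-ribosome reporter at least twice as much as the humanized-ribosome reporter, growth loss under a set limit; inconclusive = no clear call, values can overlap the other calls; inactive = the rest.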
assay: growth of wild-type and h24-humanized E. coli strains – h24 mutant RFP vs wild-type GFP, cherry-pick, dose response (AID 977628);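 note: wild-type GFP and h24 humanized RFP strains co-cultured 1 to 1 per well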; details: E. coli WT GFP strain growth, fluorescence, 24 h; at 50 µM (top of the series)

| SMILES | activity change, negative = inhibition |
| --- | --- |
| O=[N+]([O-])c1cc([N+](=O)[O-])c(Nc2nnnn2CCO)c([N+](=O)[O-])c1 | inactive: -11.8 |
